{
  "source": "patent US20170253861",
  "system": "influenza A/Indonesia/5/05 (H5N1) matrix protein M1, influenza A/Indonesia/5/05 (H5N1) virus, Q2LG20 1-252",
  "experiment": "SDS-PAGE of purified H3N2 rVLPs (self-association)",
  "data": [
    {"substance": "influenza A/Indonesia/5/05 (H5N1) matrix protein M1", "values": [
      {"measurement": "result", "value": "binds"}
    ]}
  ]
}
